# Data as given in article PMC2828546, “Screening-based discovery of drug-like O-GlcNAcase inhibitor scaffolds” (Febs Letters, 2010).
# Amino acid sequences for entries named in this document (tags omitted). Residues count along the entry.
# UniProt Q0TR53, 31-624 limits assumed: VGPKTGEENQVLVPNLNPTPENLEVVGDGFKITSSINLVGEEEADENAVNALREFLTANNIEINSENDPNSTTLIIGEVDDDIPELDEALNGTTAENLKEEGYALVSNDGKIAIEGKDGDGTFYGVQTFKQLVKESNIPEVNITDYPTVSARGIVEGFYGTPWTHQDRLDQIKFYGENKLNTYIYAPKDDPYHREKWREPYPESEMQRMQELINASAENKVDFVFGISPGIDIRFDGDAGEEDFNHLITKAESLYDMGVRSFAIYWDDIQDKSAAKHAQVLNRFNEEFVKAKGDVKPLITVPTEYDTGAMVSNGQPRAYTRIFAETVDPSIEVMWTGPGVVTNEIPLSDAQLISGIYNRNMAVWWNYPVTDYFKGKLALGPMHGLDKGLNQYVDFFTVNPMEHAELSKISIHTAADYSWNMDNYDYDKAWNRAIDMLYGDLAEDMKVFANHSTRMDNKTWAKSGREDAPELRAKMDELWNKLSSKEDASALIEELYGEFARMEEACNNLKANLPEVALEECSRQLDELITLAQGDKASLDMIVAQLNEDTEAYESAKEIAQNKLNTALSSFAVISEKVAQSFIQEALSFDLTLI
# Tests used:
# CpOGA [1] = target: T1, CpOGA (Clostridium perfringens, UniProt Q0TR53); experiment: biochemical
# CpOGA [2] = target: T1, CpOGA; experiment: biochemical; type: biochemical
structure (smiles),measurement,setting,value
CNc1ncnc2nc[nH]c12 [N^6-methyladenine],IC50,CpOGA [1],21 ± 4 µM
same,Ki,CpOGA [2],14 ± 1 µM
same,inhibition mode against CpOGA,CpOGA [2],compete for binding to the same CpOGA active site
